The source of these data is US20140287433A1.

This experiment concerns the target VAMPtide (o-Abz/Dnp) (List Biological Laboratories, Inc.). The experiment can be described thus: cell-based or functional assay.

“purified 150 kDa BoNT/B from C. botulinum strain Okra B (Metabiologics Inc.)” showed a VAMPtide cleavage, Vmax s^-1 (t = 15-60 min), 1 nM toxin, buffer +TCEP of 0.027 Vmax s^-1; a VAMPtide cleavage, Vmax s^-1 (t = 15-60 min), 2 nM toxin, buffer +TCEP of 0.016 Vmax s^-1; a VAMPtide cleavage, Vmax s^-1 (t = 15-60 min), 2 nM toxin, buffer +TCEP+Tween of 0.021 Vmax s^-1; a VAMPtide cleavage, Vmax s^-1 (t = 15-60 min), 5 nM toxin, buffer +TCEP of 0.045 Vmax s^-1. This substance showed a VAMPtide cleavage, Vmax s^-1 (t = 15-60 min), 5 nM toxin, buffer +TCEP+Tween of 0.045 Vmax s^-1; a VAMPtide cleavage, Vmax s^-1 (t = 15-60 min), 10 nM toxin, buffer +DTT+Tween of 0.044 Vmax s^-1; a VAMPtide cleavage, Vmax s^-1 (t = 15-60 min), 10 nM toxin, buffer +TCEP of 0.079 Vmax s^-1; a VAMPtide cleavage, Vmax s^-1 (t = 15-60 min), 10 nM toxin, buffer +TCEP+Tween of 0.076 Vmax s^-1. Further, the VAMPtide cleavage, Vmax s^-1 (t = 15-60 min), 20 nM toxin, buffer +DTT+Tween was 0.055 Vmax s^-1; the VAMPtide cleavage, Vmax s^-1 (t = 15-60 min), 20 nM toxin, buffer +TCEP came out at 0.126 Vmax s^-1; the VAMPtide cleavage, Vmax s^-1 (t = 15-60 min), 20 nM toxin, buffer +TCEP+Tween came to 0.111 Vmax s^-1.
